Laboratory results from US10668048B2, “Compounds for inhibiting bacterial growth via phosphatidylglycerol binding” (Wichita State University, priority 2016, dated 2020).

Test: Liptin-PG binding in solution (ITC and/or 1H NMR titration)
Protocol: The lipid binding ability of liptins 1-3 (FIG. 2A) have been investigated in solution using isothermal titration calorimetry (ITC) and/or ^1H NMR. Stoichiometry of binding was accomplished with Job plots using ^1H NMR. […] The use of organic solvents allowed the determination of binding motif using ^1H NMR.
Liptins 1b, 1e, 2c, 2d, 3a, 3c in DMF/5% CHCl3; 3e in 50% DMSO, 45% CHCl3, 5% CH3OH.
Liptins 1h and 1i 40% DMSO, 60% CHCl3, 3f in 20% DMSO, 80% CHCl3.

[1] = ITC, 50% DMSO, 45% CHCl3, 5% CH3OH

SMILES | ΔH (ITC, DMF/5% CHCl3) | ΔS (ITC, DMF/5% CHCl3) | ΔH (40% DMSO, 60% CHCl3) | ΔS (40% DMSO, 60% CHCl3) | further results
O=C(NCCOCc1ccccc1)Nc1ccccc1-c1c2nc(c(-c3ccccc3NC(=O)NCCOCc3ccccc3)c3ccc([nH]3)c(-c3ccccc3NC(=O)NCCOCc3ccccc3)c3nc(c(-c4ccccc4NC(=O)NCCOCc4ccccc4)c4ccc1[nH]4)C=C3)C=C2 [Liptin 3a] | -2.8 kcal/mol | 6 e.u. |  |  | 
CCCCCCNC(=O)CCc1ccc2c(c1)CNCCCNCc1cc(CCC(=O)NCCCCCC)ccc1OCCCCCO2 [Liptin 1h] |  |  | 0.6 kcal/mol | 19 e.u. | 
CCCCCCNC(=O)CCc1ccc2c(c1)CNCCCNCc1cc(CCC(=O)NCCCCCC)ccc1OCCCCO2 [Liptin 1i] |  |  | 3.7 kcal/mol | 27 e.u. | 
CCOCCOCCOCCNC(=O)Nc1ccccc1-c1c2nc(c(-c3ccccc3NC(=O)NCCOCCOCCOCC)c3ccc([nH]3)c(-c3ccccc3NC(=O)NCCOCCOCCOCC)c3nc(c(-c4ccccc4NC(=O)NCCOCCOCCOCC)c4ccc1[nH]4)C=C3)C=C2 [Liptin 3c] | -1.2 kcal/mol | 12 e.u. |  |  | 
NCC(=O)Nc1ccccc1-c1c2nc(c(-c3ccccc3NC(=O)CN)c3ccc([nH]3)c(-c3ccccc3NC(=O)CN)c3nc(c(-c4ccccc4NC(=O)CN)c4ccc1[nH]4)C=C3)C=C2.O=C(O)C(F)(F)F.O=C(O)C(F)(F)F.O=C(O)C(F)(F)F.O=C(O)C(F)(F)F [Liptin 3e] |  |  |  |  | ΔH [1]: 0.7 kcal/mol; ΔS [1]: 18 e.u.
O=C(NCc1cc(CCCO)cc2c1OCOc1c(cc(CCCO)cc1CNC(=O)Nc1ccccc1)CCC2)Nc1ccccc1 [Liptin 2c] | -1.4 kcal/mol | 8 e.u. |  |  | 
